# Data as given in PubChem BioAssay AID504761 (Drosophila RNAi Screening Center, 2011).
# Purpose: 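Genome-wide fly cell screen for genes dengue virus requires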 (primary screen)
# Cell system: D.Mel-2 cells from Drosophila
# Reagents: long dsRNA against Drosophila genes
# Conditions: infection with dengue virus type 2; dose and infection time not stated
# Measured: 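Per well on two replicate plates, imaging gave the percent of cells positive for viral envelope protein, ranked by infection, and a nuclear count of cells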
# Scale: infection score: higher = more virus-infected cells; cell count: higher = more cells in the well
# Rule for the call: 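Very low infection ranking in both replicate wells (chance probability at most 0.065), then a retest showing infection dropped 1.5-fold or more at p below 0.05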
# Meaning of the calls: active = confirmed: knock-down lowers infection; inactive = not picked or not confirmed
# In all, the deposit lists about 22,000 reagents; shown is an unselected part of those with a known target gene and a result. Of all reagents, 116 (0.52%) got an active call. 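Calls depend on retest data that are not deposited; infection was ranked per plate without normalising between plates; the unit of the infection score is not given.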 The raw values are shown without normalisation. Reagents against one gene are numbered here. Names joined by + are all predicted targets of the reagent. Reagent sequences are not shown. Not given: the amount of reagent, the time to read-out.
gene knocked down,reagent,"infection score, replicate 1","infection score, replicate 2","cell count, replicate 1","cell count, replicate 2",outcome
CG10550,1,2.1,2.32,6531,6592,inactive
CG34056,1,2.18,0.77,6464,6390,inactive
CG15543,1,3.84,7.66,5997,6280,inactive
Argk1 (Arginine kinase 1),1,1.84,6.71,5613,6169,inactive
Argk1 (Arginine kinase 1),2,15.6,21.1,5345,2630,inactive
Argk1 (Arginine kinase 1),3,3.95,7.77,6171,6434,inactive
Argk1 (Arginine kinase 1),4,3.73,5.04,6779,6845,inactive
Cp190 (Centrosomal protein 190kD),1,28.8,22.8,4474,3145,inactive
CG3106,1,1.64,3.61,6385,6812,inactive
CG3106,2,2,19.9,500,5697,inactive
TpnC73F (Troponin C at 73F),1,2.32,1.38,6554,6073,inactive
CG14777,1,1.24,5.58,6776,1684,inactive
Hel25E (Helicase at 25E),1,12.9,17.9,3940,2949,inactive
Hel25E (Helicase at 25E),2,18.4,11.6,2412,3230,inactive
CG7362,1,1.83,5.85,5694,6338,inactive
CG7362,2,21.4,14.3,5895,5888,inactive
CG12680,1,1.26,2.02,6250,6692,inactive
su(Hw) (suppressor of Hairy wing),1,7.75,10.3,6513,6405,inactive
CG8401,1,21.3,25.3,5018,4147,inactive
mah (mahogany),1,8.55,4.67,5741,1177,inactive
mah (mahogany),2,5.08,13.3,2283,1664,inactive
CG14411,1,1.59,3.72,6658,6697,inactive
CG14411,2,6.68,15.3,1363,4315,inactive
wrapper,1,24.3,16.8,6044,5873,inactive
CG31510,1,1.27,2.9,5372,6274,inactive
Not11 (CCR4-NOT transcription complex subunit 11),1,,,455,403,inactive
CG32111 (retired record),1,3.57,2.46,6054,5896,inactive
CG8117,1,10,10.9,6229,5140,inactive
CG8117,2,3.78,3.99,6560,6794,inactive
CG34282,1,17.7,1.5,5568,5793,inactive
CG30161,1,0.68,1.65,6758,6921,inactive
CG30323,1,10.9,7.76,7168,6518,inactive
pk (prickle),1,10.7,11.5,5564,6499,inactive
pk (prickle),2,3.74,6.3,7077,7298,inactive
pk (prickle),3,4.11,1.71,6138,6151,inactive
CG14120,1,1.61,0.62,6105,6147,inactive
CG14120,2,3.88,10.6,6445,6100,inactive
Sdhaf3 (Succinate dehydrogenase assembly factor 3),1,13,2.83,6184,6547,inactive
Dhc93AB (Dynein heavy chain at 93AB),1,5,4.33,2599,6679,inactive
Dhc93AB (Dynein heavy chain at 93AB),2,26.4,6.49,5114,5843,inactive
yem (yemanuclein),1,,4.65,371,6748,inactive
yem (yemanuclein),2,1.92,2.58,884,6539,inactive
CG14220,1,1.36,0.24,3454,4517,inactive
CG14220,2,7.02,4.95,3916,5531,inactive
asRNA:CR42743 + CG34162,1,5.54,0.89,6140,6188,inactive
CG13339,1,3.5,5.72,6349,6175,inactive
CG3746,1,12,6.32,6718,6808,inactive
CG3746,2,17.3,20.6,5407,2672,inactive
CG10053,1,,20.6,458,4280,inactive
CG10053,2,4.63,5.72,6263,6117,inactive
RagC-D (Ras-related GTP binding C/D),1,28.9,10.3,5680,6221,inactive
Agpat2 (1-Acylglycerol-3-phosphate O-acyltransferase 2),1,2.57,15.9,6219,3652,inactive
Agpat2 (1-Acylglycerol-3-phosphate O-acyltransferase 2),2,13.4,5.1,5828,7040,inactive
CG31937,1,3.41,1.57,6480,6003,inactive
Cyp313a1 (Cytochrome P450 313a1),1,1.89,9.49,6312,6841,inactive
Cyp313a1 (Cytochrome P450 313a1),2,21.2,13.9,6228,5644,inactive
Shal (Shaker cognate l),1,0.65,1.34,6002,6248,inactive
Shal (Shaker cognate l),2,1.44,4.77,6450,6335,inactive
sano (serrano),1,10.2,23.7,3517,5651,inactive
sano (serrano),2,5.7,5.6,5927,5998,inactive
CG14841,1,1.37,6.76,6415,6822,inactive
CG14841,2,4.87,4.47,6956,6337,inactive
Ir68b (Ionotropic receptor 68b),1,2.61,1.79,6132,6687,inactive
CG3699,1,8.8,2.16,4650,6195,inactive
CG3699,2,1.9,0.56,5848,6199,inactive
Lkr (Leucokinin receptor),1,4.51,18.8,5626,5856,inactive
CG1572,1,3.44,14.6,6402,4993,inactive
CG5934,1,1.35,5.63,6647,3359,inactive
CG5934,2,35.8,4.57,6212,6584,inactive
Ass + CG31286,1,16.5,30.2,5567,5130,inactive
Nf1 (Neurofibromin 1),1,3.91,3.64,6734,6229,inactive
Nf1 (Neurofibromin 1),2,29.7,9.42,5684,6654,inactive
term (terminus),1,29.1,8.65,5484,5964,inactive
Cp7Fb (Chorion protein b at 7F),1,2.55,1.13,6386,6633,inactive
